According to patent US20230398207A1:

Target: recombinant hACE2-Fc protein (GenScript) (human) (UniProt Q9BYF1)

Recombinant SARS-CoV-2 spike protein containing only the ectodomain (S1S2) (from UniProt P0DTC2 14-1204) (other; other documents disagree on this pair)
EC50: 0.14 µg/mL
